Compound potency records, mixed from different reports. Data source: NIAID ChemDB in PubChem.

Common to all: whole-cell or culture tests; organism: Aspergillus fumigatus; endpoint: MIC

Blank or dashed fields: not listed here. Lines come from different laboratories, so protocols vary.

compound | strain | read by | result
O=Cc1cc(-c2ccccc2Cl)on1 | Clinical isolates | - | >50 µg/mL
O=C(CSc1nnc(-c2ccc3ncccc3c2)o1)Nc1nc2ccc([N+](=O)[O-])cc2s1 | - | agar | 50 µg/mL
CC(N1CCN(c2ccc(-n3cnnn3)cc2)C1=O)[C@@](O)(Cn1cncn1)c1ccc(F)cc1F | 437 | - | >64 µg/mL
Cc1onc(-c2ccc(OCc3ccccc3)cc2)c1C=O | Clinical isolates | - | >50 µg/mL
O=C1C[C@@H](c2ccc(Cl)cc2)Cc2cc(O)cc(O)c21 | Clinical isolate H237 | - | 145 µg/mL
CCC(C)CC(C)CCCCCCCCC(=O)N[C@H]1C[C@@H](O)[C@H](NCCN)NC(=O)[C@@H]2[C@@H](O)CCN2C(=O)[C@H]([C@H](O)CCN)NC(=O)[C@H]([C@H](O)[C@@H](O)c2ccc(O)cc2)NC(=O)[C@@H]2C[C@@H](O)CN2C(=O)[C@H]([C@@H](C)O)NC1=O | ND158 | broth dilution | 0.03 µg/mL
C[C@@H]1[C@@H](COCC(=O)O)C[C@@H](O[C@H]2[C@H](O)[C@@H](N(Cc3ccccc3)CC(O)C[N+](C)(C)C)[C@H](O[C@H]3[C@H](O)[C@@H](N(Cc4ccccc4)CC(O)C[N+](C)(C)C)[C@H](C)O[C@@H]3COCC(=O)O)O[C@@H]2COCC(=O)O)[C@H](N(Cc2ccccc2)CC(O)C[N+](C)(C)C)[C@H]1O | RCMB 02568 | broth dilution | 41.25 µg/mL
COC(=O)/C=C/c1ccccc1 | ATCC 16404 | broth dilution / resazurin | 500 µg/mL
COc1ccc2nc(NC(=O)CSc3nnc(-c4ccc5ncccc5c4)o3)sc2c1 | - | agar | 100 µg/mL
Cc1ccc(-c2cc(C=O)no2)cc1 | Clinical isolates | - | >50 µg/mL
C=C1/C=C(\CO)[C@H](CC)OC(=O)[C@H](C)C(=O)C(O)(CO)C/C(C)=C/[C@@H](C)C1 | MF5668 | - | >200 µg/mL
CCOc1ccc(NC(=O)CSc2nnc(-c3ccc4ncccc4c3)o2)cc1 | - | agar | 100 µg/mL
Oc1ccc(C(=S)Nc2ccc(Cl)c(Cl)c2)c(O)c1 | - | - | 31.25 µg/mL
CC1=CC[C@@H]2[C@H](C1)C2(C)C | ATCC 46645 | - | 0.16 µg/mL
CC(C)S(=O)(=O)N1CCN(c2cnn(-c3cc(F)cc(F)c3)c(=O)c2OC2CCC(F)C2)CC1 | ND256 | broth dilution | 0.5 µg/mL
O=C(CSc1nnc(-c2ccc3ncccc3c2)o1)Nc1nc2ccc(Br)cc2s1 | - | agar | 50 µg/mL
Oc1ccc(C(=S)Nc2ccccc2)c(O)c1 | - | - | 125 µg/mL
O=C1C[C@@H](c2cccc(O)c2)Cc2cc(O)cc(O)c21 | Clinical isolate H237 | - | >546 µg/mL
COc1ccc(CN(CC(O)C[N+](C)(C)C)[C@@H]2[C@@H](O)[C@H](O[C@@H]3O[C@H](COCC(=O)O)[C@@H](O[C@@H]4C[C@H](COCC(=O)O)[C@@H](C)[C@H](O)[C@H]4N(Cc4ccc(OC)cc4)CC(O)C[N+](C)(C)C)[C@H](O)[C@H]3N(Cc3ccc(OC)cc3)CC(O)C[N+](C)(C)C)[C@@H](COCC(=O)O)O[C@H]2C)cc1 | RCMB 02568 | broth dilution | 100 µg/mL
COc1cc(NS(=O)(=O)c2ccc(N)cc2)ncn1 | IFM 41362 | - | 64 µg/mL
CCCCCOc1ccc(-c2ccc(-c3ccc(C(=O)N[C@H]4C[C@@H](O)[C@@H](O)NC(=O)[C@@H]5[C@@H](O)[C@@H](C)CN5C(=O)[C@H]([C@H](C)O)NC(=O)[C@H]([C@H](O)[C@@H](O)c5ccc(O)cc5)NC(=O)[C@@H]5C[C@@H](O)CN5C(=O)[C@H]([C@H](C)O)NC4=O)cc3)cc2)cc1 | 94-46 | - | >50 µg/mL
C[C@@H]1[C@@H](COCC(=O)O)C[C@@H](O[C@H]2[C@H](O)[C@@H](N(Cc3ccc(O)cc3)CC(O)C[N+](C)(C)C)[C@H](O[C@H]3[C@H](O)[C@@H](N(Cc4ccc(O)cc4)CC(O)C[N+](C)(C)C)[C@H](C)O[C@@H]3COCC(=O)O)O[C@@H]2COCC(=O)O)[C@H](N(Cc2ccc(O)cc2)CC(O)C[N+](C)(C)C)[C@H]1O | RCMB 02568 | broth dilution | 55 µg/mL
C[C@@H](N1CCN(c2ccc(-n3cnnn3)cc2)C1=O)[C@](O)(Cn1cncn1)c1ccc(F)cc1F | TIMM1728 | - | >64 µg/mL
Cc1ccc(-c2noc(C)c2C=O)cc1 | Clinical isolates | - | 50 µg/mL
Cc1cc(O)ccc1NC(=S)c1ccc(O)cc1O | - | - | 500 µg/mL
Cc1nnc(NS(=O)(=O)c2ccc(N)cc2)s1 | IFM 41362 | - | ≥256 µg/mL
Oc1ccc(C(=S)Nc2cccc(F)c2)c(O)c1 | - | - | 31.25 µg/mL
COc1ccc(NS(=O)(=O)c2ccc(N)cc2)nn1 | IFM 48051 | - | ≥256 µg/mL
C[C@@H]1[C@@H](COCC(=O)O)C[C@@H](O[C@H]2[C@H](O)[C@@H](N(Cc3ccc([N+](=O)[O-])cc3)CC(O)C[N+](C)(C)C)[C@H](O[C@H]3[C@H](O)[C@@H](N(Cc4ccc([N+](=O)[O-])cc4)CC(O)C[N+](C)(C)C)[C@H](C)O[C@@H]3COCC(=O)O)O[C@@H]2COCC(=O)O)[C@H](N(Cc2ccc([N+](=O)[O-])cc2)CC(O)C[N+](C)(C)C)[C@H]1O | RCMB 02568 | broth dilution | 11.25 µg/mL
O=C1C[C@@H](c2cccc(F)c2)Cc2cc(O)cc(O)c21 | Clinical isolate H237 | - | 274 µg/mL
Cc1ccc(F)cc1NC(=S)c1ccc(O)cc1O | - | - | 125 µg/mL
Cc1noc(NS(=O)(=O)c2ccc(N)cc2)c1C | IFM 41362 | - | 128 µg/mL
Oc1ccc(C(=S)Nc2ccc(I)cc2)c(O)c1 | - | - | 62.5 µg/mL
CC(=O)Nc1ccc2nc(NC(=O)CSc3nnc(-c4ccc5ncccc5c4)o3)sc2c1 | - | agar | 100 µg/mL
Cc1ccc(NC(=S)c2ccc(O)cc2O)c(Cl)c1 | - | - | 15.63 µg/mL
Cc1ccc(C(C)C)cc1O | F05 | - | 0.16 µg/mL

Repeating the final 4 entries:

Oc1ccc(C(=S)Nc2ccc(I)cc2)c(O)c1 ; result: 62.5 µg/mL
CC(=O)Nc1ccc2nc(NC(=O)CSc3nnc(-c4ccc5ncccc5c4)o3)sc2c1 ; read by: agar ; result: 100 µg/mL
Cc1ccc(NC(=S)c2ccc(O)cc2O)c(Cl)c1 ; result: 15.63 µg/mL
Cc1ccc(C(C)C)cc1O ; strain: F05 ; result: 0.16 µg/mL